Measurements reported in PubChem BioAssay AID624099 (ICCB-Longwood, 2012)
Aim: 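Knock-downs relieving repression by E2 of an HPV18 LCR luciferase reporter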 (primary screen). Cells: human C33A cervical carcinoma cells (HPV-negative) stably expressing BPV1 E2 and an HPV18 LCR luciferase reporter. Knock-down reagent: siRNA pool against human genes, 40 nM. Duration: 72 h. Detection: 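HPV18 LCR reporter light per well, converted to plate-wise z-scores that exclude control wells, and averaged over triplicate plates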. Direction: mean z-score and z-score: higher = stronger reporter signal, weaker E2 silencing. Rule for the call: 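Hit if mean z-score reaches 2 and two or more of three replicate z-scores also reach 2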.
The whole screen tested about 21,000 reagents; this is an unselected part. Of all reagents, 497 (2.4%) got an active call. 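Higher z means weaker E2 silencing; only reporter increases were scored, and knock-downs that hurt cell survival may mask genuine repressor factors.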 The numbers tell different reagents against one gene apart.

gene knocked down	reagent no.	mean z-score	z-score, replicate A	z-score, replicate B	z-score, replicate C	call
SAR1B	1	0.69	0.32	0.48	1.28	inactive
PRDX4	1	-0.47	-0.28	-0.51	-0.64	inactive
SLC31A2	1	-0.38	-0.33	-0.49	-0.31	inactive
TMEM131	1	0.39	0.9	0.23	0.04	inactive
STMN2	1	-0.2	0.04	-0.34	-0.31	inactive
SSRP1	1	-1.72	-1.8	-1.36	-2	inactive
ITFG1	1	-0.65	-0.5	-1.24	-0.21	inactive
NOC3L	1	-0.29	0.05	-0.55	-0.36	inactive
TAAR5	1	-0.17	0.29	-0.46	-0.35	inactive
LOC402571 (retired record)	1	0.79	1.02	0.8	0.55	inactive
VCL	1	-0.57	-0.7	-0.64	-0.36	inactive
LTA	1	-0.71	-1.22	-0.36	-0.54	inactive
HMX1	1	1.71	1.87	1.6	1.65	inactive
RBM25	1	-1.47	-1.14	-1.53	-1.73	inactive
DRC9	1	-0.8	-0.83	-0.96	-0.62	inactive
LOC285031 (retired record)	1	0	0.01	0.24	-0.26	inactive
GRPR	1	0.5	0.59	0.29	0.62	inactive
PPIAP35	1	-1.64	-1.34	-1.81	-1.75	inactive
FCF1	1	0.89	0.9	1.24	0.53	inactive
LAMB1	1	0.15	0.28	0.23	-0.05	inactive
TMPRSS11F	1	-0.07	-0.53	0.25	0.06	inactive
C21orf58	1	0.92	0.93	1.03	0.8	inactive
NEUROD4	1	-0.51	-0.18	-0.15	-1.21	inactive
CLDN5	1	-0.18	-0.14	-0.23	-0.18	inactive
EIF4G1	1	0.26	0.25	0.45	0.09	inactive
RAB11FIP5	1	-0.35	-0.18	-0.33	-0.54	inactive
UNKL	1	-1.28	-1.27	-1.38	-1.2	inactive
UNKL	2	0.4	0.35	0.18	0.68	inactive
OR7E31P	1	-0.47	-0.49	-0.61	-0.32	inactive
LOC400846 (retired record)	1	0.39	0.43	0.67	0.06	inactive
PSMD5	1	-0.25	-0.2	-0.32	-0.23	inactive
CHST8	1	-0.29	-0.07	-0.2	-0.59	inactive
PLOD3	1	-1.16	-1.13	-1.25	-1.09	inactive
MTFP1	1	-0.58	-0.3	-1.04	-0.4	inactive
PDS5A	1	-0.62	-0.51	-0.87	-0.47	inactive
GATAD2B	1	0.45	0.68	0.52	0.14	inactive
MS4A3	1	1.24	1.35	0.87	1.51	inactive
WDR48	1	-0.73	-0.8	-1.27	-0.11	inactive
OR1L4	1	-0.69	-1.25	-0.55	-0.27	inactive
MIEN1	1	-0.41	0.22	-0.77	-0.68	inactive
CAV3	1	-0.64	-0.55	-0.79	-0.59	inactive
C5orf34	1	-0.82	-0.86	-0.8	-0.8	inactive
PRSS30P	1	0.73	0.57	1.08	0.52	inactive
SLC46A2	1	0.3	0.22	-0.01	0.69	inactive
APLP1	1	0.48	0.79	0.3	0.35	inactive
COX7A2P2	1	1.83	1.5	1.77	2.21	inactive
ASXL1	1	0.82	0.8	0.66	0.99	inactive
KCNS2	1	-0.08	-0.2	0.23	-0.26	inactive
ZNF549	1	-0.15	-0.35	0.01	-0.12	inactive
PLPPR3	1	1.07	1.64	0.9	0.67	inactive
HSD17B2	1	-0.97	-1.29	-0.79	-0.83	inactive
LOC202775 (retired record)	1	-0.84	-1.02	-0.81	-0.69	inactive
SLC7A7	1	-0.35	-0.21	-0.6	-0.25	inactive
IWS1	1	-0.35	-0.35	-0.37	-0.32	inactive
PYY2	1	0.21	0.46	0.36	-0.18	inactive
OOSP2	1	1.52	1.41	1.67	1.49	inactive
PCCA	1	0.03	-0.08	0.22	-0.03	inactive
LOC342460 (retired record)	1	-0.74	-0.66	-0.78	-0.78	inactive
TAC4	1	-1.78	-1.91	-1.6	-1.84	inactive
LOC400481 (retired record)	1	-0.59	-1.02	-0.16	-0.59	inactive
CHI3L1	1	-0.27	-0.34	-0.31	-0.16	inactive
NBPF3	1	-0.64	-0.77	-0.75	-0.41	inactive
NAA10	1	-1.77	-1.88	-1.74	-1.69	inactive
LOC221140 (retired record)	1	-0.84	-1.22	-0.37	-0.94	inactive
LIPJ	1	0.29	-0.11	0.67	0.3	inactive
RIMBP2	1	-0.61	-0.63	-0.78	-0.41	inactive
OTOP3	1	-0.2	-0.25	-0.58	0.23	inactive
PYGB	1	-0.48	-0.45	-0.5	-0.5	inactive
ALG13	1	0.14	-0.02	0.72	-0.29	inactive
ALG13	2	1.17	0.86	1.38	1.26	inactive
RBM28	1	-1.04	-1.16	-0.93	-1.02	inactive
CMYA5	1	0.15	0	-0.02	0.48	inactive
BOLA1	1	0.98	1.42	0.89	0.61	inactive

Targets listed so far whose target name begins with C or c (8):
gene knocked down	reagent no.	mean z-score	z-score, replicate A	z-score, replicate B	z-score, replicate C	call
C21orf58	1	0.92	0.93	1.03	0.8	inactive
CLDN5	1	-0.18	-0.14	-0.23	-0.18	inactive
CHST8	1	-0.29	-0.07	-0.2	-0.59	inactive
CAV3	1	-0.64	-0.55	-0.79	-0.59	inactive
C5orf34	1	-0.82	-0.86	-0.8	-0.8	inactive
COX7A2P2	1	1.83	1.5	1.77	2.21	inactive
CHI3L1	1	-0.27	-0.34	-0.31	-0.16	inactive
CMYA5	1	0.15	0	-0.02	0.48	inactive
